Measured values from several laboratories, pooled; numbers as filed in NIAID ChemDB.

Common to all: whole-cell or culture tests; agent: Mycobacterium avium complex; measure: MIC

Neighbouring rows are from separate reports.

structure,strain or isolate,value
CC(C)N=c1cc2n(-c3ccc(Cl)cc3)c3ccccc3nc-2cc1Nc1ccc(Cl)cc1,1017,0.125 µg/mL
C[C@@H]1CN(c2c(F)c(N)c3c(=O)c(C(=O)O)cn(C4CC4)c3c2F)C[C@H](C)N1,ATCC 35718,8 µg/mL
O=C(N1CCC(CN=c2cc3n(-c4ccc(Cl)cc4)c4ccccc4nc-3cc2Nc2ccc(Cl)cc2)CC1)N1CC1,109,≥16 µg/mL
CC1(C)N=C(N)N=C(N)N1OCCCOc1cc(Cl)c(Cl)cc1Cl,NKJ002A,4 µg/mL
CC[C@H]1OC(=O)[C@H](C)[C@@H](O[C@H]2C[C@@](C)(OC)[C@@H](OC(C)=O)[C@H](C)O2)[C@H](C)[C@@H](OC2O[C@H](C)C[C@H](N(C)C)[C@H]2OC(=O)NCCCCCCCCCCCCCCN(C)C)C(C)(O)C[C@@H](C)/C(=N\OCCCC2CCCCC2)[C@H](C)[C@@H](O)[C@]1(C)O,20045,0.78 µg/mL
CO[C@H]1/C=C/O[C@@]2(C)Oc3c(C)c(O)c4c(O)c(c5c(c4c3C2=O)NC2(CCN(CC(C)C)CC2)N=5)=NC(=O)/C(C)=C\C=C\[C@H](C)[C@H](O)[C@@H](C)[C@@H](O)[C@@H](C)[C@H](OC(C)=O)[C@@H]1C,800-4,0.013 µg/mL
CN1N=C(c2ccncc2)OC1c1ccc(Cl)cc1,12592 PI,>20 µg/mL
CC[C@H]1OC(=O)[C@H](C)[C@@H](O[C@H]2C[C@@](C)(OC)[C@@H](O)[C@H](C)O2)[C@H](C)[C@@H](O[C@@H]2O[C@H](C)C[C@H](N(C)C)[C@H]2O)[C@](C)(OC)C[C@@H](C)C(=O)[C@H](C)[C@@H](O)[C@]1(C)O,Isolate 90-0738,3 µg/mL
CCCO/N=C1\[C@H](C)CC(C)(O)[C@H](O[C@@H]2O[C@H](C)C[C@H](N(C)C)[C@H]2O)[C@@H](C)[C@H](OC2C[C@@](C)(OC)[C@@H](O)[C@H](C)O2)[C@@H](C)C(=O)O[C@H](CC)[C@@](C)(O)[C@H](O)[C@H]1C,20039,1.56 µg/mL
COc1c(N2CCNC(C)C2)c(F)cc2c(=O)c(C(=O)O)cn(C3CC3)c12,26777,>16 µg/mL
CC1COc2c(N3CCN(C)CC3)c(F)cc3c(=O)c(C(=O)O)cn1c23,ATCC 35718,>8 µg/mL
NNC(=O)c1ccncc1,N-314 (HIV-),2 µg/mL
CC[C@H]1OC(=O)[C@H](C)[C@@H](O[C@H]2C[C@@](C)(OC)[C@@H](OC(C)=O)[C@H](C)O2)[C@H](C)[C@@H](OC2O[C@H](C)C[C@H](N(C)C)[C@H]2OC(N)=O)C(C)(O)C[C@@H](C)/C(=N\OCCCC2CCCCC2)[C@H](C)[C@@H](O)[C@]1(C)O,20045,1.56 µg/mL
CC[C@H]1OC(=O)[C@H](C)[C@@H](OC2C[C@@](C)(OC)[C@@H](O)[C@H](C)O2)[C@H](C)[C@@H](O[C@@H]2O[C@H](C)C[C@H](N(C)C)[C@H]2O)C(C)(O)C[C@@H](C)/C(=N\OCc2ccccc2)[C@H](C)[C@@H](O)[C@]1(C)O,20092,>50 µg/mL
COc1cccc2c1n([O-])c1cccc(OC)c1[n+]2=O,109,≥16 µg/mL
CC[C@H]1OC(=O)[C@H](C)[C@@H](OC2C[C@@](C)(OC)[C@@H](O)[C@H](C)O2)[C@H](C)[C@@H](O[C@@H]2O[C@H](C)C[C@H](N(C)C)[C@H]2O)C(C)(O)C[C@@H](C)/C(=N\OCCCc2ccccc2)[C@H](C)[C@@H](O)[C@]1(C)O,20092,12.5 µg/mL
CC[C@H]1OC(=O)[C@H](C)[C@@H](O[C@H]2C[C@@](C)(OC)[C@@H](O)[C@H](C)O2)[C@H](C)[C@@H](O[C@@H]2O[C@H](C)C[C@H](N(C)C)[C@H]2O)[C@](C)(OC)C[C@@H](C)C(=O)[C@H](C)[C@@H](O)[C@]1(C)O,ATCC 35718,1 µg/mL
CCCCCCCCCCCCO/N=C1\[C@H](C)CC(C)(O)[C@H](O[C@@H]2O[C@H](C)C[C@H](N(C)C)[C@H]2O)[C@@H](C)[C@H](OC2C[C@@](C)(OC)[C@@H](O)[C@H](C)O2)[C@@H](C)C(=O)O[C@H](CC)[C@@](C)(O)[C@H](O)[C@H]1C,20039,25 µg/mL
CO[C@H]1/C=C/O[C@@]2(C)Oc3c(C)c(O)c4c(=O)c(c5oc6cc(N7CCN(CC(C)C)CC7)cc(=O)c6nc5c4c3=C2O)NC(=O)/C(C)=C\C=C\[C@H](C)[C@H](O)[C@@H](C)[C@@H](O)[C@@H](C)[C@H](OC(C)=O)[C@@H]1C,N-260,0.05 µg/mL
CN1N=C(c2ccncc2)OC1c1ccc(Cl)cc1Cl,12592 PI,>20 µg/mL
CO[C@H]1/C=C/O[C@@]2(C)Oc3c(C)c(O)c4c(O)c(c5c(c4c3C2=O)NC2(CCN(CC(C)C)CC2)N=5)=NC(=O)/C(C)=C\C=C\[C@H](C)[C@H](O)[C@@H](C)[C@@H](O)[C@@H](C)[C@H](OC(C)=O)[C@@H]1C,N-251 (HIV-),1 µg/mL
CCCOc1ccc(OCC)cc1NCc1cnc2nc(N)nc(N)c2c1C,NJ168,8 µg/mL
CC1(C)N=C(N)N=C(N)N1c1ccc(Cl)cc1,LPR,>128 µg/mL
CCCCCCCCO[C@@H]1O[C@@H](C(CO[C@@H]2O[C@@H](C(O)CO)[C@H](O)[C@H]2O)OC)[C@H](OC)[C@H]1OC,NJ211,>128 µg/mL
CO[C@H]1/C=C/O[C@@]2(C)Oc3c(C)c(O)c4c(=O)c(c5oc6cc(N7CCN(CC(C)C)CC7)cc(=O)c6nc5c4c3=C2O)NC(=O)/C(C)=C\C=C\[C@H](C)[C@H](O)[C@@H](C)[C@@H](O)[C@@H](C)[C@H](OC(C)=O)[C@@H]1C,N-238 (HIV-),0.0313 µg/mL
C[C@@H]1CN(c2c(F)c(N)c3c(=O)c(C(=O)O)cn(C4CC4)c3c2F)C[C@H](C)N1,Isolate 90-1295,1 µg/mL
CCN=c1cc2n(-c3ccc(Cl)cc3)c3ccccc3nc-2cc1Nc1ccc(Cl)cc1,101,0.25 µg/mL
COc1ccc(C2OC(c3ccncc3)=NN2C)cc1F,12592 PI,>20 µg/mL
Nc1ccc(S(=O)(=O)c2ccc(N)cc2)cc1,DW29,64 µg/mL
CCNNC(=O)O[C@H]1[C@H](O[C@@H]2[C@@H](C)[C@H](O[C@H]3C[C@@](C)(OC)[C@@H](OC(C)=O)[C@H](C)O3)[C@@H](C)C(=O)O[C@H](CC)[C@@](C)(O)[C@H](O)[C@@H](C)/C(=N/OCCCC3CCCCC3)[C@H](C)CC2(C)O)O[C@H](C)C[C@@H]1N(C)C,20039 (clarithromycin-susceptible),1.56 µg/mL
CCCCCCCCOC1OC([C@H](CO)OC2O[C@@H](C(O)CO)[C@H](O)[C@H]2O)[C@H](O)[C@H]1O,NJ3404,>128 µg/mL
CC[C@H]1OC(=O)[C@H](C)[C@@H](O[C@H]2C[C@@](C)(OC)[C@@H](O)[C@H](C)O2)[C@H](C)[C@@H](O[C@@H]2O[C@H](C)C[C@H](N(C)C)[C@H]2O)[C@](C)(O)C[C@@H](C)/C(=N\OCOCCOC)[C@H](C)[C@@H](O)[C@]1(C)O,N-92159,2 µg/mL
NNC(=O)c1ccncc1,905,4 µg/mL
CCCCCCCCO[C@H]1OC([C@@H](COC)O[C@H]2O[C@H]([C@@H](O)CO)[C@@H](O)[C@@H]2O)[C@@H](OC)[C@@H]1OC,NJ168,>12.8 µg/mL
CN1N=C(c2ccncc2)OC1c1cccc(F)c1,12592 PI,>20 µg/mL
CCCCCCCCO[C@@H]1O[C@H]([C@@H](CO)O[C@H]2O[C@H](CO)[C@@H](O)[C@@H]2O)[C@H](O)[C@H]1O,NJ3404,>128 µg/mL
NC1CCN(c2c(F)cc3c(=O)c(C(=O)O)cn(C4CC4)c3c2Cl)C1,ATCC 35718,>8 µg/mL
CCC(=O)O[C@H]1[C@H](C)[C@@H](O[C@@H]2O[C@H](C)C[C@H](N(C)C)[C@H]2O)C(C)(O)C[C@@H](C)/C(=N\OCCCOc2ccccc2)[C@H](C)[C@@H](O)[C@](C)(O)[C@@H](CC)OC(=O)[C@@H]1C,20092 (clarithromycin-resistant),25 µg/mL
CC[C@H]1OC(=O)[C@H](C)[C@@H](OC2C[C@@](C)(OC)[C@@H](O)[C@H](C)O2)[C@H](C)[C@@H](O[C@@H]2O[C@H](C)C[C@H](N(C)C)[C@H]2O)C(C)(OC)C[C@@H](C)/C(=N\OCCCOc2ccccc2)[C@H](C)[C@@H](O)[C@]1(C)O,20039,1.56 µg/mL
CC[C@H]1OC(=O)[C@H](C)[C@@H](O[C@H]2C[C@@](C)(OC)[C@@H](OC(C)=O)[C@H](C)O2)[C@H](C)[C@@H](O[C@@H]2O[C@H](C)C[C@H](N(C)C)[C@H]2O)C(C)(O)C[C@@H](C)/C(=N\OCc2ccccc2)[C@H](C)[C@@H](O)[C@]1(C)O,20096 (clarithromycin-resistant),25 µg/mL
CCCCCCCCCCCCCCN(C)C(=O)O[C@H]1C(O[C@@H]2[C@@H](C)[C@H](O[C@H]3C[C@@](C)(OC)[C@@H](OC(C)=O)[C@H](C)O3)[C@@H](C)C(=O)O[C@H](CC)[C@@](C)(O)[C@H](O)[C@@H](C)/C(=N/OCCCC3CCCCC3)[C@H](C)CC2(C)O)O[C@H](C)C[C@@H]1N(C)C,20092,0.2 µg/mL
CC[C@H]1OC(=O)[C@H](C)[C@@H](O[C@H]2C[C@@](C)(OC)[C@@H](O)[C@H](C)O2)[C@H](C)[C@@H](O[C@@H]2O[C@H](C)C[C@H](N(C)C)[C@H]2O)[C@](C)(O)C[C@@H](C)CN(C)[C@H](C)[C@@H](O)[C@]1(C)O,ATCC 35718,>8 µg/mL
CC[C@H]1OC(=O)[C@H](C)[C@@H](OC2C[C@@](C)(OC)[C@@H](O)[C@H](C)O2)[C@H](C)[C@@H](O[C@@H]2O[C@H](C)C[C@H](N(C)C)[C@H]2O)C(C)(O)C[C@@H](C)/C(=N\OCCN(C)c2ccccc2)[C@H](C)[C@@H](O)[C@]1(C)O,20092,25 µg/mL
COc1cccc2c1nc1cccc(OC)c1[n+]2[O-],100,16 µg/mL
CCCCCCCCNC(=O)O[C@H]1C(O[C@@H]2[C@@H](C)[C@H](O[C@H]3C[C@@](C)(OC)[C@@H](OC(C)=O)[C@H](C)O3)[C@@H](C)C(=O)O[C@H](CC)[C@@](C)(O)[C@H](O)[C@@H](C)/C(=N/OCCCC3CCCCC3)[C@H](C)CC2(C)O)O[C@H](C)C[C@@H]1N(C)C,20034,0.2 µg/mL
CCCCCCCCO[C@@H]1O[C@@H](C(CO[C@@H]2O[C@@H](C(COC(C)=O)OC(C)=O)[C@H](OC(C)=O)[C@H]2OC(C)=O)OC)[C@H](OC)[C@H]1OC,NJ3404,>128 µg/mL
CCCCCCO/N=C1\[C@H](C)CC(C)(O)[C@H](O[C@@H]2O[C@H](C)C[C@H](N(C)C)[C@H]2O)[C@@H](C)[C@H](O[C@H]2C[C@@](C)(OC)[C@@H](OC(C)=O)[C@H](C)O2)[C@@H](C)C(=O)O[C@H](CC)[C@@](C)(O)[C@H](O)[C@H]1C,20039 (clarithromycin-susceptible),1.56 µg/mL
CC[C@H]1OC(=O)[C@H](C)[C@@H](O[C@H]2C[C@@](C)(OC)[C@@H](OC(C)=O)[C@H](C)O2)[C@H](C)[C@@H](OC2O[C@H](C)C[C@H](N(C)C)[C@H]2OC(=O)NC)C(C)(O)C[C@@H](C)/C(=N\OCCCC2CCCCC2)[C@H](C)[C@@H](O)[C@]1(C)O,20092,50 µg/mL

A second listing of 5 rows from above:

structure | strain or isolate | value
COc1ccc(C2OC(c3ccncc3)=NN2C)cc1F | 12592 PI | >20 µg/mL
CN1N=C(c2ccncc2)OC1c1ccc(Cl)cc1 | 12592 PI | >20 µg/mL
CO[C@H]1/C=C/O[C@@]2(C)Oc3c(C)c(O)c4c(=O)c(c5oc6cc(N7CCN(CC(C)C)CC7)cc(=O)c6nc5c4c3=C2O)NC(=O)/C(C)=C\C=C\[C@H](C)[C@H](O)[C@@H](C)[C@@H](O)[C@@H](C)[C@H](OC(C)=O)[C@@H]1C | N-238 (HIV-) | 0.0313 µg/mL
CC[C@H]1OC(=O)[C@H](C)[C@@H](O[C@H]2C[C@@](C)(OC)[C@@H](O)[C@H](C)O2)[C@H](C)[C@@H](O[C@@H]2O[C@H](C)C[C@H](N(C)C)[C@H]2O)[C@](C)(OC)C[C@@H](C)C(=O)[C@H](C)[C@@H](O)[C@]1(C)O | Isolate 90-0738 | 3 µg/mL
CC1(C)N=C(N)N=C(N)N1OCCCOc1cc(Cl)c(Cl)cc1Cl | NKJ002A | 4 µg/mL